# Source: the supplement of paper PMC3842684
# Only a part is listed here, and it is no random draw.
# Legend:
# [1] = tested on: P. falciparum NF54-pfs16-GFP early (I-III) stage gametocytes; test: relative % inhibition of viable gametocyte number; higher = more gametocytocidal; settings: stage: early (I-III) gametocyte, incubation 72 h
# Method in brief: (§1)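 Viable gametocytes were counted by confocal imaging as elongated GFP objects carrying MitoTracker Red signal above a cut-off, after 72 h of compound exposure (5 or 0.5 µM) at 37°C in 5% CO2 and 5% O2 and overnight staining. The NF54 pfs16-GFP gametocytes had been magnet-isolated at early (I/IIa, day 2) or late (day 8) stage and plated at 10% parasitaemia, 0.1% haematocrit in 384-well poly-D-lysine imaging plates. Relative inhibition was normalised to vehicle and positive-control wells within each plate.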
# [2] = tested on: P. falciparum NF54-pfs16-GFP late (IV-V) stage gametocytes; test: as above; settings: stage: late (IV-V) gametocyte, incubation 72 h
# Method in brief: as §1
SMILES,relative % inhibition ([1]; 0.5 µM),relative % inhibition ([1]; 5 µM),relative % inhibition ([2]; 0.5 µM),relative % inhibition ([2]; 5 µM)
c1ccc2c(NCCCCCCNc3c4c(nc5ccccc35)CCCC4)c3c(nc2c1)CCCC3,40.6%,65.9%,29.6%,86.9%
CCC1(C)CC(CCNCc2ccccc2O)(c2ccc(C)cc2)CCO1 (stereo not drawn),81.7%,87.3%,46.6%,66.1%
